{"source": "PubChem BioAssay AID504761 (Drosophila RNAi Screening Center, 2011)", "screen": "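Fly genes whose silencing reduces dengue virus type 2 infection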 (primary screen)", "cell system": "D.Mel-2 cells from Drosophila", "reagent": "long dsRNA against Drosophila genes", "treatment": "infection with dengue virus type 2; dose and infection time not stated", "detection": "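Cells stained for dengue envelope protein and imaged; percent of infected cells per well on duplicate plates, ranked by infection, with stained nuclei counted for cell number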", "scale": "infection score: higher = more virus-infected cells; cell count: higher = more cells in the well", "active means": "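Low infection ranks in the two replicates (chance level up to 0.065) followed by a retest with a 1.5-fold or larger significant decrease, p below 0.05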", "meaning of the calls": "active = confirmed: knock-down lowers infection; inactive = not picked or not confirmed", "note": "The deposit covers about 22,000 reagents; below is a random part of those with a known target gene and a result. Over the whole deposit, 116 (0.52%) are marked active. 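Calls depend on retest data that are not deposited; infection was ranked per plate without normalising between plates; the unit of the infection score is not given.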 Raw values vary from plate to plate and are shown uncorrected. Names joined by + are all predicted targets of the reagent. Further read-outs or replicates are left out here. Reagent sequences are not shown. Not given: the amount of reagent, the time to read-out."}
{"target gene": "Rh50", "DRSC id": "DRSC08692", "infection score, replicate 1": 8.21, "cell count, replicate 1": 6150, "outcome": "inactive"}
{"target gene": "lncRNA:CR42862", "DRSC id": "DRSC08348", "infection score, replicate 1": 10.5, "cell count, replicate 1": 5571, "outcome": "inactive"}
{"target gene": "lncRNA:CR42862", "DRSC id": "DRSC27596", "infection score, replicate 1": 4.36, "cell count, replicate 1": 6715, "outcome": "inactive"}
{"target gene": "lncRNA:CR42862", "DRSC id": "DRSC36563", "infection score, replicate 1": 1.9, "cell count, replicate 1": 6206, "outcome": "inactive"}
{"target gene": "psd", "DRSC id": "DRSC03131", "infection score, replicate 1": 0.92, "cell count, replicate 1": 6091, "outcome": "inactive"}
{"target gene": "psd", "DRSC id": "DRSC25415", "infection score, replicate 1": 13.9, "cell count, replicate 1": 6129, "outcome": "inactive"}
{"target gene": "CG8135 + BBIP1", "DRSC id": "DRSC12739", "infection score, replicate 1": 2.22, "cell count, replicate 1": 5715, "outcome": "inactive"}
{"target gene": "CG8135 + BBIP1", "DRSC id": "DRSC16384", "infection score, replicate 1": 3.41, "cell count, replicate 1": 6457, "outcome": "inactive"}
{"target gene": "CG8135 + BBIP1", "DRSC id": "DRSC26052", "infection score, replicate 1": 2.8, "cell count, replicate 1": 6777, "outcome": "inactive"}
{"target gene": "CG42374 + Mettl5", "DRSC id": "DRSC11085", "infection score, replicate 1": 4.06, "cell count, replicate 1": 6422, "outcome": "inactive"}
{"target gene": "Taf8", "DRSC id": "DRSC20363", "infection score, replicate 1": 13.3, "cell count, replicate 1": 5484, "outcome": "inactive"}
{"target gene": "Jhedup", "DRSC id": "DRSC07173", "infection score, replicate 1": 2.08, "cell count, replicate 1": 6777, "outcome": "inactive"}
{"target gene": "CG6813", "DRSC id": "DRSC16122", "infection score, replicate 1": 2.86, "cell count, replicate 1": 6368, "outcome": "inactive"}
{"target gene": "bru2", "DRSC id": "DRSC01246", "infection score, replicate 1": 9.85, "cell count, replicate 1": 6029, "outcome": "inactive"}
{"target gene": "bru2", "DRSC id": "DRSC01247", "infection score, replicate 1": 13.5, "cell count, replicate 1": 5005, "outcome": "inactive"}
{"target gene": "bru2", "DRSC id": "DRSC01249", "infection score, replicate 1": 0.14, "cell count, replicate 1": 7171, "outcome": "inactive"}
{"target gene": "bru2", "DRSC id": "DRSC25003", "infection score, replicate 1": 2.8, "cell count, replicate 1": 6175, "outcome": "inactive"}
{"target gene": "fng", "DRSC id": "DRSC11455", "infection score, replicate 1": 3.45, "cell count, replicate 1": 6326, "outcome": "inactive"}
{"target gene": "fng", "DRSC id": "DRSC11887", "infection score, replicate 1": 19.2, "cell count, replicate 1": 5871, "outcome": "inactive"}
{"target gene": "fng", "DRSC id": "DRSC21935", "infection score, replicate 1": 11.6, "cell count, replicate 1": 5482, "outcome": "inactive"}
{"target gene": "CG30403", "DRSC id": "DRSC03889", "infection score, replicate 1": 3.91, "cell count, replicate 1": 6187, "outcome": "inactive"}
